Pooled drug test results. Numbers come from NIAID ChemDB, via PubChem.

All rows: growth or infection tests; species: HIV-2; measure: EC50

Blank or dashed fields: not listed here. ECn: concentration that inhibits the pathogen or its effect by n%. Conditions beyond the fields shown may differ between rows.

smiles,cells,method,setting,strain,value
Nc1ncnc2c1ncn2CCOCP(=O)(O)O,CEM,,,ROD,6 µM
N#CC[C@H](C1CCCC1)n1cc(-c2ncnc3[nH]ccc23)cn1,PBMC,p24 / ELISA,,,0.02 µM
Cc1cn([C@H]2C[C@H](F)[C@@H](CO)O2)c(=O)[nH]c1=O,PBMC,ELISA,,336,0.006 µM
Nc1nc(Nc2cccc3ccccc23)c2ncn(CCOCP(=O)(O)O)c2n1,CEM,cytopathic effect / MTT,,ROD,80 µg/mL
Cc1cc2c(c(-c3cc(C)cc4c3OP(=O)(OC[C@@H]3C=C[C@H](n5cc(C)c(=O)[nH]c5=O)O3)OC4)c1)OP(=O)(OC[C@@H]1C=C[C@H](n3cc(C)c(=O)[nH]c3=O)O1)OC2,CEM/0 (wild type),cytopathic effect / syncytia,,,0.41 µM
C[C@]1(CO)O[C@@H](n2ccc(N)nc2=O)C[C@@H]1O,HeLa,β-galactosidase,,EHO,0.0013 µM
CCCN(C)c1nc(N)nc2c1[nH]c[n+]2C[C@@H](C)OCP(=O)(O)O,CEM,cytopathic effect / MTT,,ROD,5.5 ± 2.1 µg/mL
c1ccc(CNCc2ccc(CN3CCCNCCNCCCNCC3)cc2)nc1,MT-4,cytopathic effect / MTS,,EHO,0.0123 µM
CCOCn1c(Sc2cc(C)cc(C)c2)c(C(C)C)c(=O)[nH]c1=S,MT-4,trypan blue,,ROD,>50 µM
C#C[C@]1(CO)O[C@@H](n2cnc3c(N)ncnc32)C[C@@H]1O,HeLa,β-galactosidase,,ROD,0.0019 µM
Cc1cn([C@H]2C=C[C@@H](CO)O2)c(=O)[nH]c1=O,MT-4,trypan blue,5 d,ROD,0.77 µM
COC(=O)[C@H](C)NP(=O)(OCC1C/C1=C/n1cnc2c(N)ncnc21)Oc1ccccc1,MT-2,p24,,ROD,0.03 µM
COc1nc(=O)[nH]c2c1C(c1ccc([N+](=O)[O-])cc1)c1c(OC)nc(=O)[nH]c1O2,MT-4,cytopathic effect,,ROD,>313 µM
Cc1cn([C@H]2C[C@H](N=[N+]=[N-])[C@@H](CO)O2)c(=O)nc1NN(C)C,MT-4,MTT / ELISA,,ROD,0.015 µM
CCOC(=O)CC1OP(=O)(OC[C@@H]2C=C[C@H](n3cc(C)c(=O)[nH]c3=O)O2)Oc2ccccc21,CEM + CEM TK-,cytopathic effect / syncytia,,ROD,25 µM
C1CNCCNCCCN(CCCN2CCCNCCNCCCNCC2)CCNC1,MT-4,cytopathic effect / MTS,,EHO,1.74 µM
CNc1ccc(Cl)cc1S(=O)(=O)c1ccccc1[N+](=O)[O-],CEM + CEM-SS,XTT,,ROD,>100 µM
CC(C)[C@H](NC(=O)c1ccc2ccccc2n1)C(=O)N[C@@H](Cc1ccccc1)[C@H](O)CN1CC[C@@H](OCc2ccncc2)C[C@H]1C(=O)NC(C)(C)C,C8166,p24,,ROD,0.03 µM
Cc1ccnc2c1NC(=O)c1cccnc1N2C1CC1,MT-4,cytopathic effect,,EHO,>97.6 µM
Cc1cn([C@H]2C=C[C@@H](COP3(=O)OCc4cc(-c5ccccc5)ccc4O3)O2)c(=O)[nH]c1=O,CEM + CEM TK-,syncytia,,ROD,6 µM
Cc1cn([C@H]2CC[C@@H](COP(=O)(OC[C@@H]3CC[C@H](n4cc(C)c(=O)[nH]c4=O)O3)Oc3ccc(S(C)(=O)=O)cc3)O2)c(=O)[nH]c1=O,MT-4,cytopathic effect / trypan blue,,ROD,206 µM
Nc1nc2c(ncn2CCOCP(=O)(O)O)c(=O)[nH]1,MT-4,,,ROD,0.24 µM
Cc1cn([C@H]2C[C@H](N=[N+]=[N-])[C@@H](CO)O2)c(=O)[nH]c1=O,PBMC,p24,,D194,0.01 µM
Clc1nc(Cl)c2c(n1)Oc1nc(Cl)nc(Cl)c1C2c1ccccc1,MT-4,cytopathic effect,,ROD,>17.5 µM
Cc1cn([C@H]2C=C[C@@H](CO)O2)c(=O)[nH]c1=O,CEM + CEM/O,cytopathic effect / syncytia,,ROD,0.25 µM
Cc1cn([C@H]2C=C[C@@H](CO)O2)c(=O)[nH]c1=O,CEM + CEM/O,syncytia,,ROD,0.35 µM
CC(C)(C)[Si](C)(C)OC[C@H]1O[C@@H](n2ccc(=O)n(CC(=O)O)c2=O)[C@H](O[Si](C)(C)C(C)(C)C)[C@@H]1O,MT-4,cytopathic effect / trypan blue,,ROD,>10 µM
Nc1ncnc2c1ncn2CCOCP(=O)(O)O,MT-4,trypan blue,,,7.5 µM
CC[C@H](C)[C@H](NC(=O)c1ccccc1SSc1ccccc1C(=O)N[C@H](C(=O)O)[C@@H](C)CC)C(=O)O,CEM,p24 / RT activity,,,6.4 µM
Cc1cn([C@@H]2O[C@H](CO[Si](C)(C)C(C)(C)C)[C@@]3(OS(=O)(=O)C=C3N)[C@H]2O[Si](C)(C)C(C)(C)C)c(=O)[nH]c1=O,MT-4,trypan blue,,ROD,>50 µM
CC(=O)Oc1ccc(COP(=O)(OCc2ccc(OC(C)=O)cc2)OC[C@@H]2C=C[C@H](n3cc(C)c(=O)[nH]c3=O)O2)cc1,CEM + CEM/O,cytopathic effect / syncytia,,ROD,0.33 µM
C#C[C@]1(CO)O[C@@H](n2cnc3c(=O)[nH]c(N)nc32)C[C@@H]1O,HeLa,β-galactosidase,,ROD,0.026 µM
Cc1cn([C@H]2C=C[C@@H](COP(=O)(OC[C@@H]3C=C[C@H](n4cc(C)c(=O)[nH]c4=O)O3)Oc3ccc(S(C)(=O)=O)cc3)O2)c(=O)[nH]c1=O,MT-4,cytopathic effect / trypan blue,,ROD,3.6 µM
Nc1nc(NC2CCCC2)c2ncn(CCOCP(=O)(O)O)c2n1,MT-4,cytopathic effect / MTT,,ROD,>0.8 µg/mL
C#C[C@]1(CO)O[C@@H](n2cc(C)c(=O)[nH]c2=O)C[C@@H]1O,HeLa,β-galactosidase,,EHO,0.29 µM
c1cc(CN2CCCNCCNCCCNCC2)ccc1CN1CCCNCCNCCCNCC1,PBMC,antigen,,ROD X4,0.007 µg/mL
CC(C)[C@H](NC(=O)c1ccc2ccccc2n1)C(=O)N[C@@H](Cc1ccccc1)[C@H](O)CN1CC[C@@H](OCc2ccncc2)C[C@H]1C(=O)NC(C)(C)C,PBMC,p24 / ELISA / antigen,,ROD,0.008 µM
O=c1[nH]c(=S)[nH]c2c1C(c1ccc(Cl)cc1)c1c([nH]c(=S)[nH]c1=O)O2,MT-4,cytopathic effect,,ROD,>137 µM
Nc1nc(NC2CC2)c2ncn([C@H]3C=C[C@@H](CO)C3)c2n1,HeLa + HELA CD4+,plaque count,,LAV-2,7.5 µM
CCCCC#CCSc1ccccc1OC(C)=O,PBMC,p24,,CDC310319,>100 µM
CN(C)CCCNc1nc(N)nc2c1ncn2CCOCP(=O)(O)O,CEM,cytopathic effect / MTT,,ROD,4 µg/mL
C#C[C@]1(CO)O[C@@H](n2cnc3c(=O)[nH]cnc32)C[C@@H]1O,HeLa,β-galactosidase,,EHO,0.37 µM
O=c1[nH]cnc2c1ncn2[C@H]1CC[C@@H](CO)O1,C8166,,,ROD,15 µM
C[C@H](CC1CNC2C(N)=NC(N)NC12)OCP(=O)(O)O,MT-4,cytopathic effect / MTT,,ROD,47.7 ± 7 µg/mL
Cc1cn([C@H]2C=C[C@@H](COP(=O)(O[C@H](C)c3ccccc3)O[C@H](C)c3ccccc3)O2)c(=O)[nH]c1=O,CEM + CEM/O,cytopathic effect / syncytia,,ROD,100 µM
CC(C)CN(C[C@@H](O)[C@H](Cc1ccccc1)NC(=O)[C@@H](NC(=O)CNCc1cccc(F)c1)C(C)(C)C)S(=O)(=O)c1ccc(N)cc1,MT-2,virus yield,,,<0.032 µM
COC(=O)[C@H](C)NP(=O)(OC[C@@H]1C=C[C@H](n2cnc3c(N)ncnc32)O1)Oc1ccccc1,C8166,,,ROD,0.065 µM
C1CNCCNCCCN(CCCN2CCCNCCNCCCNCC2)CCNC1,MT-4,cytopathic effect / MTT,,ROD,1 µM
O=C(NCc1ccc(F)cc1)c1nc(N2CCCCS2(=O)=O)c2cccnc2c1O,,β-galactosidase,,EHO,0.011 µM
C1CNCCNCCCN(CCCC2CNCCCNCCNCCCN2)CCNC1,MT-4,cytopathic effect / MTT,,ROD,3.56 µM
COc1nc(=O)[nH]c2c1C(c1ccc(Br)cc1)c1c(OC)nc(=O)[nH]c1O2,MT-4,cytopathic effect,,EHO,>309 µM
Cc1cn([C@H]2C=C[C@@H](COP3(=O)OCc4ccc5ccccc5c4O3)O2)c(=O)[nH]c1=O,CEM + CEM/O,syncytia,,ROD,0.1 µM
C1CNCCNCCCN[C@H]([C@@H]2CNCCCNCCNCCCN2)CNC1,CEM,antigen,,ROD,0.14 µM

For reference, 5 entries again:

| smiles | cells | method | setting | strain | value |
|---|---|---|---|---|---|
| CC(C)CN(C[C@@H](O)[C@H](Cc1ccccc1)NC(=O)[C@@H](NC(=O)CNCc1cccc(F)c1)C(C)(C)C)S(=O)(=O)c1ccc(N)cc1 | MT-2 | virus yield |  |  | <0.032 µM |
| CCOC(=O)CC1OP(=O)(OC[C@@H]2C=C[C@H](n3cc(C)c(=O)[nH]c3=O)O2)Oc2ccccc21 | CEM + CEM TK- | cytopathic effect / syncytia |  | ROD | 25 µM |
| Cc1cn([C@H]2C[C@H](F)[C@@H](CO)O2)c(=O)[nH]c1=O | PBMC | ELISA |  | 336 | 0.006 µM |
| Nc1nc(Nc2cccc3ccccc23)c2ncn(CCOCP(=O)(O)O)c2n1 | CEM | cytopathic effect / MTT |  | ROD | 80 µg/mL |
| Nc1ncnc2c1ncn2CCOCP(=O)(O)O | CEM |  |  | ROD | 6 µM |